pKd: −log10 of the molar value.
What was measured:
[1] = molecular target: S1-C9 (SARS-CoV (Tor2 isolate)) (UniProt P59594); assay: phage ELISA, S1-C9 coated 0.2 µg per well
[2] = molecular target: S1-Ig (SARS-CoV (Tor2 isolate); human) (UniProt P59594); assay: SPR (BIAcore 3000), S1-Ig amine-coupled to CM5 chip
[3] = molecular target: S1(327-510)-Ig (SARS-CoV (Tor2 isolate); human) (UniProt P59594); assay: radioimmunoprecipitation with 80R scFv beads, normalized to Protein A

**Q.** For 80R scFv, which A450 [1] is on record?
**A.** > 1 A450

**Q.** What about the Ka [2] of the same substance?
**A.** 3.1e+07 M⁻¹

**Q.** What about the pKd [2] of the same substance?
**A.** 7.49

**Q.** And the koff [2]?
**A.** 0.00836 s⁻¹

**Q.** And the kon [2]?
**A.** 229000 M⁻¹ s⁻¹

**Q.** And the percent of the amount that Protein A precipitated [3]?
**A.** 5%
